Results of unrelated studies side by side (data: NIAID ChemDB).

All rows: whole-cell or culture tests; organism: Mycobacterium avium

Percent inhibition refers to the dose given; in toxicity tests it is the harm to the cells. An empty or dashed field is not shown. ECn: concentration that inhibits the pathogen or its effect by n%. MIC50, MIC90 and the like: level of inhibition, or share of isolates inhibited. Lines come from different laboratories, so protocols vary. "inactive" is the filed call at that dose; no cut-off is given.

structure,strain,method,conditions,read-out,tested at,value
C[C@H]1COc2c(N3CC[C@@H](CNC4CC4)C3)c(F)cc3c(=O)c(C(=O)O)cn1c23,4 strains,,,Mean MIC,,7.8 µg/mL
NCC[C@H](O)C(=O)N[C@@H]1C[C@H](N)[C@@H](O[C@H]2O[C@H](CN)[C@@H](O)[C@H](O)[C@H]2O)[C@H](O)[C@H]1O[C@H]1O[C@H](CO)[C@@H](O)[C@H](N)[C@H]1O,9 isolates (HIV+),,,MIC90,,64 µg/mL
CCC[C@@H]1C[C@@H](C(=O)N[C@@H]([C@H]2O[C@H](SC)[C@H](O)[C@@H](O)[C@H]2O)[C@@H](C)O)N(C)C1,ATCC 25291,,,Mean MIC,,120 µg/mL
CC1COc2c(N3CCN(C)CC3)c(F)cc3c(=O)c(C(=O)O)cn1c23,13 strains,,,MIC90,,64 µg/mL
O=C1C=CC(=O)C=C1,MAC104,,,MBC,,200 µg/mL
CC(C)N=c1cc2n(-c3ccc(Cl)cc3)c3ccccc3nc-2cc1Nc1ccc(Cl)cc1,Reference strains,,,MIC90,,1 µg/mL
CC12C(=O)c3cccc(O)c3C(=O)C1CC1=C2C(=O)c2c(O)cccc2C1=O,,,,MFC,,>800 µg/mL
Cc1cc(-c2cc3c(cc2F)c(=O)c(C(=O)O)cn3C2CC2)cc(C)n1,453,,,MBC,,4 µg/mL
CC[C@@H](CO)NCCN[C@@H](CC)CO,N-444,broth dilution,,MBC,,32 µg/mL
COc1c(N2CCNC(C)C2)c(F)cc2c(=O)c(C(=O)O)cn(C3CC3)c12,4 strains,,,Mean MIC,,2.3 µg/mL
CCc1cc(C(N)=S)ccn1,ATCC 25291,,,Median MIC,,2.65 µg/mL
CO[C@H]1/C=C/O[C@@]2(C)Oc3c(C)c(O)c4c(O)c(c5c(c4c3C2=O)NC2(CCN(CC(C)C)CC2)N=5)=NC(=O)/C(C)=C\C=C\[C@H](C)[C@H](O)[C@@H](C)[C@@H](O)[C@@H](C)[C@H](OC(C)=O)[C@@H]1C,Isolate 90-1065,,,MIC,,>1 µg/mL
CC1=CC(=O)c2c(O)cccc2C1=O,,,,MFC,,>1000 µg/mL
CC1CN(c2c(F)c(N)c3c(=O)c(C(=O)O)cn(C4CC4)c3c2F)CCN1C,RG0,,,MIC,,0.5 µg/mL
CCCCCNC(=O)Nc1ccc(S(=O)(=O)Nc2cc(C)on2)cc1,330/88,broth dilution / absorbance,21 d,MIC100,,1000 µM
O=C(O)c1cn(C2CC2)c2c(F)c(N3CCN4CCC3C4)c(F)cc2c1=O,PI4/44,,,MIC,,0.5 µg/mL
CCn1cc(C(=O)O)c(=O)c2cc(F)c(N3CCN(C)CC3)cc21,,,pH 6.8,inhibition,10 µg/mL,88%
CN(C)c1ccc(O)c2c1C[C@H]1C[C@H]3[C@H](N(C)C)C(=O)C(C(N)=O)=C(O)[C@@]3(O)C(=O)C1=C2O,ATCC 25291,,,Mean MIC,,>28 µg/mL
C[C@H]1COc2c(N3CCN(C)CC3)c(F)cc3c(=O)c(C(=O)O)cn1c23,N-444,broth dilution,,MBC,,16 µg/mL
NCCC(O)C(=O)N[C@@H]1C[C@H](N)C(O[C@H]2O[C@H](CN)[C@@H](O)[C@H](O)[C@H]2O)[C@H](O)[C@H]1O[C@H]1O[C@H](CO)[C@@H](O)[C@H](N)[C@H]1O,Clinical strains,,,MIC90,,16 µg/mL
NC[C@H]1O[C@H](O[C@H]2[C@H](O)[C@@H](O[C@H]3O[C@H](CO)[C@@H](O)[C@H](N)[C@H]3O)[C@H](N)C[C@@H]2N)[C@H](N)C[C@@H]1O,ATCC 25291,,,Mean MIC,,6.5 µg/mL
CC[C@H]1OC(=O)[C@H](C)[C@@H](O[C@H]2C[C@@](C)(OC)[C@@H](O)[C@H](C)O2)[C@H](C)[C@@H](O[C@@H]2O[C@H](C)C[C@H](N(C)C)[C@H]2O)[C@](C)(OC)C[C@@H](C)C(=O)[C@H](C)[C@@H](O)[C@]1(C)O,1435-C clarithromycin-resistant,,,MIC,,>512 µg/mL
CC[C@H]1OC(=O)[C@H](C)[C@@H](O[C@H]2C[C@@](C)(OC)[C@@H](O)[C@H](C)O2)[C@H](C)[C@@H](O[C@@H]2O[C@H](C)C[C@H](N(C)C)[C@H]2O)[C@](C)(OC)C[C@@H](C)C(=O)[C@H](C)[C@@H](O)[C@]1(C)O,101,,,MIC,,2 µg/mL
CC[C@H]1OC(=O)[C@H](C)[C@@H](O[C@H]2C[C@@](C)(OC)[C@@H](O)[C@H](C)O2)[C@H](C)[C@@H](O[C@@H]2O[C@H](C)C[C@H](N(C)C)[C@H]2O)[C@](C)(O)C[C@@H](C)C(=O)[C@H](C)[C@@H](O)[C@]1(C)O,Clinical strains,,,MIC90,,>16 µg/mL
O=C1C=CC(=O)c2ccccc21,MAC104,,,MBC,,400 µg/mL
C=C[C@]1(C)C=C2[C@H](O)C[C@@H]3C(C)(CCC[C@@]3(C)CO)[C@H]2CC1,ITM1812,,,inhibition,100 µg/mL,inactive
CC[C@H]1OC(=O)[C@H](C)[C@@H](O[C@H]2C[C@@](C)(OC)[C@@H](O)[C@H](C)O2)[C@H](C)[C@@H](O[C@@H]2O[C@H](C)C[C@H](N(C)C)[C@H]2O)[C@](C)(OC)C[C@@H](C)C(=O)[C@H](C)[C@@H](O)[C@]1(C)O,ATCC 25291,,,Mean MIC,,5 µg/mL
NNC(=O)c1ccncc1,,resazurin,,EC50,,>200 µg/mL
CNC(C)C1CCN(c2c(F)c(N)c3c(=O)c(C(=O)O)cn(C4CC4)c3c2OC)C1,14 strains,,,MIC90,,>32 µg/mL
CO[C@H]1/C=C/O[C@@]2(C)Oc3c(C)c(O)c4c(=O)c(c5oc6cc(N7CCN(CC(C)C)CC7)cc(=O)c6nc5c4c3=C2O)NC(=O)/C(C)=C\C=C\[C@H](C)[C@H](O)[C@@H](C)[C@@H](O)[C@@H](C)[C@H](OC(C)=O)[C@@H]1C,453,,,MBC,,0.125 µg/mL
CCN(CC)c1nc2c(s1)c1c(O)c3c(O)c(C)c4c(c32)C(=O)[C@@](C)(O/C=C/[C@H](OC)[C@@H](C)[C@@H](OC(C)=O)[C@H](C)[C@H](O)[C@H](C)[C@@H](O)[C@@H](C)/C=C/C=C(/C)C(=O)N1)O4,3350-4,,,MBC,,8 µg/mL
O=C1C=CC(=O)c2c(O)cccc21,MAC104,,,MBC,,12.5 µg/mL
CN[C@H]1CCN(c2c(F)cc3c(=O)c(C(=O)O)cn4c3c2OC[C@@H]4C)C1,4 strains,,,Mean MIC,,17.2 µg/mL
CC(C)N=c1cc2n(-c3ccc(Cl)cc3)c3ccccc3nc-2cc1Nc1ccc(Cl)cc1,ATCC 25291,,,Median MIC,,0.31 µg/mL
CCCNC(=O)Nc1ccc(S(=O)(=O)Nc2cc(C)on2)cc1,330/88,broth dilution / absorbance,14 d,MIC100,,1000 µM
CC[C@@H](CO)NCCN[C@@H](CC)CO,Clinical strains,,,MIC90,,16 µg/mL
O=C(O)c1cn(C2CC2)c2c(F)c(N3CCC(N4CCCC4)C3)c(F)cc2c1=O,PI12/39,,,MIC,,0.25 µg/mL
CN[C@@H]1[C@H](O[C@H]2[C@H](O[C@H]3[C@H](O)[C@@H](O)[C@H](N=C(N)N)[C@@H](O)[C@@H]3N=C(N)N)O[C@@H](C)[C@]2(O)C=O)O[C@@H](CO)[C@H](O)[C@H]1O,3090-C clarithromycin-resistant,,,MIC,,4 µg/mL
O=C(O)c1cn(C2CC2)c2c(F)c(N3CCN4CCC3C4)c(F)cc2c1=O,LR114R,,,MIC,,0.06 µg/mL
CC[C@H]1OC(=O)[C@H](C)[C@@H](O[C@H]2C[C@@](C)(OC)[C@@H](O)[C@H](C)O2)[C@H](C)[C@@H](O[C@@H]2O[C@H](C)C[C@H](N(C)C)[C@H]2O)[C@](C)(OC)C[C@@H](C)C(=O)[C@H](C)[C@@H](O)[C@]1(C)O,1854,broth dilution / radiometric,pH 6.8,MBC,,8 µg/mL
Cc1cc(NS(=O)(=O)c2ccc(NC(=O)Nc3ccc(S(=O)(=O)Nc4cc(C)on4)cc3)cc2)no1,330/88,broth dilution / absorbance,14 d,MIC100,,32 µM
CCOc1c(N2CCC(C(C)(C)N)C2)c(F)cc2c(=O)c(C(=O)O)cn(C3CC3)c12,14 strains,,,MIC90,,8 µg/mL
C[C@@H]1CN(c2c(F)c(N)c3c(=O)c(C(=O)O)cn(C4CC4)c3c2F)C[C@H](C)N1,9 isolates (HIV+),,,MIC50,,4 µg/mL
CCCCCCNC(=O)Nc1ccc(S(=O)(=O)Nc2cc(C)on2)cc1,330/88,broth dilution / absorbance,21 d,MIC100,,250 µM
CC(=O)O[C@H]1C[C@@]2(C)[C@@H](C[C@@H](O)[C@H]3[C@@]4(C)CC[C@@H](O)[C@@H](C)[C@@H]4CC[C@@]32C)/C1=C(\CCC=C(C)C)C(=O)O,ATCC 25291,,,Mean MIC,,19 µg/mL
CC(C)N=c1cc2n(-c3ccc(Cl)cc3)c3ccccc3nc-2cc1Nc1ccc(Cl)cc1,30 strains,,,Median MIC,,0.25 µg/mL
CC(N)C1CCN(c2nc3c(cc2F)c(=O)c(C(=O)O)cn3C2CC2)C1,14 strains,,,MIC90,,32 µg/mL
CC(C)N=c1cc2n(-c3ccc(Cl)cc3)c3ccccc3nc-2cc1Nc1ccc(Cl)cc1,3011,,,MIC,,0.12 µg/mL
CCCCNC(=O)Nc1ccc(S(=O)(=O)Nc2cc(C)on2)cc1,330/88,broth dilution / absorbance,14 d,MIC100,,1000 µM
Nc1ccc(C(=O)O)c(O)c1,ATCC 25291,,,Mean MIC,,28 µg/mL
C[C@H]1COc2c(N3C[C@@H](N)C(C)(C)C3)c(F)cc3c(=O)c(C(=O)O)cn1c23,4 strains,,,Mean MIC,,5.5 µg/mL

Repeating the final 4 entries:

{"structure": "CC(C)N=c1cc2n(-c3ccc(Cl)cc3)c3ccccc3nc-2cc1Nc1ccc(Cl)cc1", "strain": "3011", "read-out": "MIC", "value": "0.12 µg/mL"}
{"structure": "CCCCNC(=O)Nc1ccc(S(=O)(=O)Nc2cc(C)on2)cc1", "strain": "330/88", "method": "broth dilution / absorbance", "conditions": "14 d", "read-out": "MIC100", "value": "1000 µM"}
{"structure": "Nc1ccc(C(=O)O)c(O)c1", "strain": "ATCC 25291", "read-out": "Mean MIC", "value": "28 µg/mL"}
{"structure": "C[C@H]1COc2c(N3C[C@@H](N)C(C)(C)C3)c(F)cc3c(=O)c(C(=O)O)cn1c23", "strain": "4 strains", "read-out": "Mean MIC", "value": "5.5 µg/mL"}